Measured values from several laboratories, pooled; numbers as filed in NIAID ChemDB.

All rows: tests in culture; species: Plasmodium falciparum

Lines come from different laboratories, so protocols vary. ECn: concentration that inhibits the pathogen or its effect by n%. Percent inhibition refers to the dose given; in toxicity tests it is the harm to the cells. An empty or dashed field is not shown.

smiles,dose,endpoint,mutations,cell line,method,strain,conditions,value
N=C(N)c1cccc(OCCCCOc2cccc(C(=N)N)c2)c1,-,EC50,-,-,hypoxanthine uptake,D6,-,0.11 µM
CC(C)(C)OC(=O)N/N=C(/OCc1ccccc1)C(C)(O)c1ccc(Cl)c(Cl)c1,5 µM,inhibition,-,-,hypoxanthine uptake / radiometric,3D7,-,0%
CC[C@H]1OC(=O)[C@H](C)[C@@H](OC2C[C@@](C)(OC)[C@@H](O)[C@H](C)O2)[C@H](C)[C@@H](OC2O[C@H](C)C[C@H](N(C)C)[C@H]2O)[C@](C)(OC2C[C@@H](N(C)C)[C@@H](O)[C@H](C)O2)C[C@@H](C)C(=O)[C@H](C)[C@@H](O)[C@]1(C)O,-,EC50,-,RBC,fluorescence,3D7,48 h,9.7 µM
COc1cc(C2=NCCN2)ccc1OCCCCCOc1ccc(C2=NCCN2)cc1OC,-,EC50,-,-,hypoxanthine uptake,W2,-,0.066 µM
CC[C@H]1OC(=O)[C@H](C)[C@@H](OC2C[C@@](C)(OC)[C@@H](O)[C@H](C)O2)[C@H](C)[C@@H](OC2O[C@H](C)C[C@H](N(C)C)[C@H]2O)[C@](C)(O)C[C@@H](C)CN(C)[C@H](C)[C@@H](O)[C@]1(C)O,-,EC50,-,RBC,fluorescence,W2 Mef,120 h,0.05 µM
CCN(CC)CCCC(C)Nc1ccnc2cc(Cl)ccc12,-,EC50,KAE609-resistant pfatp4 D1247Y,-,SYBR Green / fluorescence,KAE609R-3,-,0.013 µM
N=C(N)c1ccc(OCCOc2ccc(C(=N)N)cc2)cc1,-,EC50,-,-,hypoxanthine uptake,W2,-,0.878 µM
C[C@H]1Cc2c([nH]c3cc(Cl)c(F)cc23)[C@@]2(N1)C(=O)Nc1ccc(Cl)cc12,-,EC50,KAE609-resistant (T418N/P990R),-,SYBR Green / fluorescence,KAE609R-2,-,0.00547 µM
NCCC1=c2c(O)c3c(c(O)c2N=C1)=NC=CS3(=O)=O,-,MIC,-,-,-,Dd2,-,0.0066 µM
CCO/C(=N/NC(=O)NOCc1ccccc1)C(C)(O)c1ccc2ccccc2c1,5 µM,inhibition,-,-,hypoxanthine uptake / radiometric,3D7,-,14%
C=C[C@H]1CN2CC[C@H]1C[C@H]2[C@H](O)c1ccnc2ccc(OC)cc12,0.016 µg/mL,inhibition,-,-,-,W2,72 h,75%
Cn1nc(C(F)(F)F)c(-c2ccc(Br)cc2)c1NC(=O)Nc1ccc(F)cc1F,-,EC50,GNF-Pf4492-resistant A211T,-,SYBR Green / fluorescence,GNF-Pf4492R-1,-,1.17 µM
CCC[C@H]1O[C@@H]2CC(=O)O[C@@H]2C2=C1C(=O)c1c(O)cccc1C2=O,2 µM,inhibition,-,-,SYBR Green,7G8,-,90%
CCOC(=O)N/N=C(/OCC)C(O)(CC)c1ccc(Cl)c(Cl)c1,5 µM,inhibition,-,-,hypoxanthine uptake / radiometric,3D7,-,66%
N=C(N)c1cccc(OCCCCCCOc2cccc(C(=N)N)c2)c1,-,EC50,-,-,hypoxanthine uptake,D6,-,0.05 µM

Repeating the final 2 entries:

CCOC(=O)N/N=C(/OCC)C(O)(CC)c1ccc(Cl)c(Cl)c1 ; dose: 5 µM ; endpoint: inhibition ; method: hypoxanthine uptake / radiometric ; strain: 3D7 ; value: 66%
N=C(N)c1cccc(OCCCCCCOc2cccc(C(=N)N)c2)c1 ; endpoint: EC50 ; method: hypoxanthine uptake ; strain: D6 ; value: 0.05 µM